Experimental data published in publication PMC13347698 (Analytical Chemistry, 2026).

Assays:
[1] = molecular target: dimeric C145A 3CL^pro single mutant (Severe acute respiratory syndrome coronavirus 2, UniProt P0DTD1, C3408A); type: binding, SARS-CoV-2
[2] = molecular target: monomeric E290A/R298A 3CL^pro double mutant (Severe acute respiratory syndrome coronavirus 2, UniProt P0DTD1, E3553A/R3561A); type: binding, SARS-CoV-2

O=C(Nc1ccc(N(Cc2ccsc2)C(=O)Cn2nnc3ccccc32)cc1)C1CC1 [ML300]
binding heat detected [1]: No measurable heat was detected | binding detectable [2]: not
